Measured values from several laboratories, pooled; numbers as filed in NIAID ChemDB.

Shared fields: target-level tests; protein: CCR5; read-out: IC50

Blank or dashed fields: not listed here. Lines come from different laboratories, so protocols vary. ICn: concentration for n% inhibition.

| compound | changes | read by | result |
|---|---|---|---|
| CN(CC(CCN1CCC2(CC1)CS(=O)c1ccccc12)C1CCCCC1)S(=O)(=O)c1ccccc1 |  | radioligand binding / binding | <10 µM |
| CN(CC(c1ccccc1)N1CCC2(CC1)CS(=O)(=O)c1ccccc12)S(=O)(=O)c1ccccc1 |  | radioligand binding / binding | 10 µM |
| CN1C(=O)CC2(CCN(CC[C@H](CN(C)S(=O)(=O)c3ccccc3)c3cccc(Cl)c3)CC2)c2ccccc21 |  | radioligand binding / binding | 0.06 µM |
| CN(C[C@@H](CCN1CCC2(CC1)CS(=O)(=O)c1ccccc12)c1ccc(Cl)cc1)S(=O)(=O)c1ccccc1 |  | radioligand binding / binding | 0.27 µM |
| CN(CC(CCN1CCC(NC(=O)NCc2ccccc2)CC1)c1ccccc1)S(=O)(=O)c1ccccc1 |  | radioligand binding / binding | 0.075 µM |
| CN(CC(CN1CCC2(CC1)CS(=O)c1ccccc12)c1ccccc1)S(=O)(=O)c1ccccc1 |  | radioligand binding / binding | >10 µM |
| CN(CC(C)(CCN1CCC(N(CCO)C(=O)OCc2ccc([N+](=O)[O-])cc2)CC1)c1ccsc1)S(=O)(=O)c1ccccc1 | CCR5-D276A | radiometric | 0.004 µM |
| CN(C[C@@H](CCN1CCC2c3ccccc3NC2C1)c1cccc(Cl)c1)S(=O)(=O)c1ccccc1 |  | radioligand binding / binding | 0.25 µM |
| O=C(C1CCCCC1)N1C[C@H](CN2CCC(c3ccccc3)CC2)[C@@H](c2ccccc2)C1 | CCR5-E283A | radiometric | >10 µM |
| CN(C[C@@H](CCN1CCC2(CC1)CS(=O)c1ccccc12)c1ccc(F)cc1)S(=O)(=O)c1ccccc1 |  | radioligand binding / binding | 0.67 µM |
| CCCN(C(=O)Cc1ccccc1)C1CCN(CCC(CN(C)S(=O)(=O)c2ccccc2)c2ccccc2)CC1 |  | radioligand binding / binding | 0.003 µM |
| CCN(C(=O)OCc1ccccc1)C1CCN(CCC(CNC)(CN(C)S(=O)(=O)c2ccccc2)c2ccccc2)CC1 |  | radioligand binding / binding | >0.1 µM |
| CC(C)C(=O)N1C[C@H](CN2CCC(c3ccccc3)CC2)[C@@H](c2ccccc2)C1 | CCR5-Y251A | radiometric | 9.8 µM |
| COC(=O)N(CC1CCCC1)C1CCN(CCC(CN(C)S(=O)(=O)c2ccccc2)c2ccccc2)CC1 |  | radioligand binding / binding | 0.01 µM |
| CN(CC(CCN1CCC2(CC1)CSc1ccccc12)c1cc(Cl)cc(Cl)c1)S(=O)(=O)c1ccccc1 |  | radioligand binding / binding | <10 µM |
| CN(C[C@@H](CCN1CCC2(CC1)NC(=O)c1ccccc12)c1cccc(Cl)c1)S(=O)(=O)c1ccccc1 |  | radioligand binding / binding | 0.04 µM |
| Cc1ccc(C(CCN2CCC(c3ccccc3)CC2)CN(C)S(=O)(=O)c2ccccc2)cc1C |  | radioligand binding / binding | 0.08 µM |
| CN(CC(CCCN1CCC2(CC1)CS(=O)(=O)c1ccccc12)c1cccc(Cl)c1)S(=O)(=O)c1ccccc1 |  | radioligand binding / binding | 0.52 µM |

Repeating the final 2 entries:

{"compound": "Cc1ccc(C(CCN2CCC(c3ccccc3)CC2)CN(C)S(=O)(=O)c2ccccc2)cc1C", "read by": "radioligand binding / binding", "result": "0.08 µM"}
{"compound": "CN(CC(CCCN1CCC2(CC1)CS(=O)(=O)c1ccccc12)c1cccc(Cl)c1)S(=O)(=O)c1ccccc1", "read by": "radioligand binding / binding", "result": "0.52 µM"}